Compound potency records, mixed from different reports. Data source: NIAID ChemDB in PubChem.

All rows: growth or infection tests; agent: Candida albicans

Conditions beyond the fields shown may differ between rows. An empty or dashed field is not shown. A number after MIC or MFC names an inhibition level or a share of isolates. Two numbers with a dash give a range or band.

CCCCOC(=O)C(N)Cc1cc(I)c(OC)c(I)c1 ; read-out: MIC ; result: 500 µg/mL
Cc1ccc(-c2nc3ccccc3c(=O)n2-c2ccc(C(=O)N/N=C\c3ccc(F)cc3)cc2)cc1 ; read-out: MIC100 ; strain: MTCC 227 ; result: 250 µg/mL
Cc1ccc(CC(=O)Nc2ccc(Cc3nc4ccccc4s3)cc2)cc1 ; read-out: MIC100 ; read by: broth dilution ; strain: ATCC 10231 ; result: 25 µg/mL
Cc1c(Sc2ccccc2)[n+](=O)c2cc(C(F)(F)F)ccc2n1[O-] ; read-out: MIC ; strain: Clinical isolate 5 ; result: 15.6 µg/mL
Nc1c(-c2nc3ccccc3o2)sc(=S)n1Cc1ccccc1 ; read-out: MIC ; result: <200 µg/mL
CCC1CCCC(CC)C(=O)NCCCC(CC)C(OC2OC(C)C(O)C(N)C2OC2OC(CO)C(O)C(O)C2O)CC1 ; read-out: Mean MIC ; strain: 12 strains ; result: 32 µg/mL
COc1ccc(/C=C2\SC(c3ccc(F)cc3)N(NC(=O)c3ccc(-n4c(-c5ccc(C)cc5)nc5ccccc5c4=O)cc3)C2=O)cc1 ; read-out: MIC100 ; strain: MTCC 227 ; result: 1000 µg/mL
COc1ccc(CS(=O)(=O)C2NN=C(c3sc(C)nc3C)N2C2C3CC4CC(C3)CC2C4)cc1 ; read-out: MIC ; strain: ATCC 14053 ; result: 25 µg/mL
Cc1ccc(-c2nc3ccccc3c(=O)n2-c2ccc(C(=O)NN3C(=O)/C(=C/c4ccc(N(C)C)cc4)SC3c3ccc(F)cc3)cc2)cc1 ; read-out: MIC100 ; strain: MTCC 227 ; result: 1000 µg/mL
CCNC(CCC(C)C1CC[C@@]2(C)C3=C(CCC12C)C1(C)CC[C@H](OC(C)=O)C(C)(C)C1CC3)C(C)C ; read-out: MIC90 ; strain: A.10231 ; result: 100 µg/mL
CCCCCCCCC(O)[C@H]1O[C@H]1C(=O)NC1CC1 ; read-out: MIC ; strain: F2 sensitive ; result: 6.25 µg/mL
N#C/C(=C1\SC(=O)CN1c1ccccc1)c1nc2ccccc2o1 ; read-out: MIC ; result: >200 µg/mL
CC(n1ccn(-c2ccc(Cn3ccnn3)cc2)c1=O)C(O)(Cn1cncn1)c1ccc(F)cc1F ; read-out: MIC ; strain: TA ; result: 0.03 µg/mL
CNC(CCC(C)C1CC[C@@]2(C)C3=C(CCC12C)C1(C)CC[C@H](OC(C)=O)C(C)(C)C1CC3)C(C)C ; read-out: MIC90 ; strain: A.10231 ; result: 100 µg/mL
CCCCn1c(-c2sc(C)nc2C)n[nH]c1=S ; read-out: MIC ; strain: ATCC 14053 ; result: 12.5 µg/mL
CC(=O)N1CCN(c2ccc(OC[C@H]3CO[C@](Cn4ccnc4)(c4ccc(Cl)cc4Cl)O3)cc2)CC1 ; read-out: MIC ; strain: 2381E ; result: 0.002 µg/mL
CCCCN1C(c2sc(C)nc2C)=NNC1SC ; read-out: MIC ; strain: ATCC 14053 ; result: 12.5 µg/mL
CCCCCCCCCCOC(=O)C(N)Cc1ccc(OC)cc1 ; read-out: MIC ; result: 250 µg/mL
CCN1CCN(c2nc(NN=C3SCC(=O)N3c3ccccc3C)nc3ccccc23)CC1 ; read-out: MIC ; read by: agar / visual reading ; strain: MTCC 183 ; result: 200 µg/mL
C[C@H]1[C@H](O)[C@@H](C)/C=C/C=C/C=C/C=C/C=C/C=C/C=C/[C@H](O[C@@H]2O[C@H](C)[C@@H](O)[C@H](N)[C@@H]2O)C[C@@H]2O[C@](O)(C[C@@H](O)C[C@@H](O)CC[C@H](O)[C@@H](O)C[C@@H](O)CC(=O)O[C@H]1C)C[C@H](O)[C@H]2C(=O)O ; read-out: MIC ; read by: broth dilution ; strain: ATCC 18804 ; result: 0.09 µM
COc1ccc(C[C@H](N)C(=O)N[C@H]2[C@@H](O)[C@H](n3cnc4c(N)ncnc43)O[C@@H]2C(=O)O)cc1 ; read-out: MIC ; strain: FP-622 ; result: 3.1 µg/mL
C[C@H](CCCC(C)(C)N)C1CC[C@@]2(C)C3CC=C4C(C)(C)[C@@H](O)CC[C@]4(C)C3CC[C@]12C ; read-out: MIC ; strain: IP 1180.79 ; result: 4 µM
CC(C)C(N)CCC(C)C1CCC2C3CC=C4C[C@@H](O)CCC4(C)C3CCC12C ; read-out: MIC90 ; strain: IFO. 1385 ; result: 0.39 µg/mL
Cc1ccc(-c2nc3ccccc3c(=O)n2-c2ccc(C(=O)NN3C(=O)/C(=C/c4ccccc4Br)SC3c3ccc(F)cc3)cc2)cc1 ; read-out: MIC100 ; strain: MTCC 227 ; result: 1000 µg/mL
Cc1ccc(NC(=S)Nc2nc(N3CCN(c4ccccc4)CC3)c3ccccc3n2)cc1 ; read-out: MIC ; read by: agar / visual reading ; strain: MTCC 183 ; result: 12.5 µg/mL
O=C(Cc1ccc([N+](=O)[O-])cc1)Nc1ccc(-c2nc3ccccc3s2)cc1 ; read-out: MIC100 ; read by: broth dilution ; strain: ATCC 10231 ; result: 25 µg/mL
Clc1nnnc2c1sc1ncccc12 ; read-out: MIC ; result: 25 µg/mL
CC(n1ncn(-c2ccc(Cn3ccnn3)cc2)c1=O)C(O)(Cn1cncn1)c1ccc(F)cc1F ; read-out: MIC ; strain: TA ; result: 0.5 µg/mL
C=C1C(=O)OCC1COC(=O)CCCC(C)C ; read-out: MIC ; strain: A9540 ; result: 50 µg/mL
C[C@@H](n1ccn(-c2ccc(OCC(F)(F)C(F)F)cc2)c1=O)C(O)(Cn1cncn1)c1ccccc1F ; read-out: MIC ; strain: TIMM1756 ; result: <0.016 µg/mL
CCOc1cc2c(cc1F)n([O-])c(C)c(S(=O)(=O)c1ccccc1)[n+]2=O ; read-out: MIC ; strain: Clinical isolate 23 ; result: 15.6 µg/mL
C[C@H]1[C@H](O)[C@@H](C)/C=C/C=C/C=C/C=C/C=C/C=C/C=C/[C@H](O[C@@H]2O[C@H](C)[C@@H](O)[C@H](N)[C@@H]2O)C[C@@H]2O[C@](O)(C[C@@H](O)C[C@@H](O)CC[C@H](O)[C@@H](O)C[C@@H](O)CC(=O)O[C@H]1C)C[C@H](O)[C@H]2C(=O)O ; read-out: MIC ; strain: 1208E ; result: 0.008 µg/mL
CC(n1ccn(-c2ccc(-n3ncnn3)cc2)c1=O)C(O)(Cn1cncn1)c1ccc(F)cc1F ; read-out: MIC ; strain: TA ; result: 0.002 µg/mL
COc1ccc(/C=C(\C#N)c2nc3ccccc3o2)cc1OC ; read-out: MIC ; result: >200 µg/mL
Cc1nnsc1-c1n[nH]c(=S)n1C1C2CC3CC(C2)CC1C3 ; read-out: MIC ; strain: ATCC 14053 ; result: 25 µg/mL
CC(C)C(N)CCC(C)C1CC[C@@]2(C)C3=C(CCC12C)C1(C)CC[C@H](O)C(C)(C)C1CC3 ; read-out: MIC90 ; strain: A11651 ; result: 100 µg/mL
CC(n1ccn(-c2ccc(-n3cncn3)cc2)c1=O)C(O)(Cn1cncn1)c1ccc(F)cc1F ; read-out: MIC ; strain: TA ; result: <0.016 µg/mL
C=CCc1ccc(OC)c(OC)c1 ; read-out: MIC90 ; read by: turbidity ; strain: 2781 ; result: 345 µg/mL
CC(C)C(CCC(C)C1CCC2C3CC=C4C[C@@H](O)CCC4(C)C3CCC12C)NS(=O)(=O)O ; read-out: MIC90 ; strain: IFO. 1385 ; result: 0.78 µg/mL
Cc1ccc(-c2nc3ccccc3c(=O)n2-c2ccc(C(=O)NN3C(=O)/C(=C/c4ccccc4O)SC3c3ccc(F)cc3)cc2)cc1 ; read-out: MIC100 ; strain: MTCC 227 ; result: 1000 µg/mL
O=C(Cc1ccccc1)Nc1ccc(Cc2nc3ccccc3s2)cc1 ; read-out: MIC100 ; read by: broth dilution ; strain: ATCC 10231 ; result: 25 µg/mL
C[C@@H](N1CCN(c2ccc(OCC(F)(F)C(F)F)cc2)C1=O)C(O)(Cn1cncn1)c1ccccc1F ; read-out: MIC ; strain: TIMM1756 ; result: <0.016 µg/mL
S=C(Nc1ccccc1)Nc1nc(N2CCN(c3ccccc3)CC2)c2ccccc2n1 ; read-out: MIC ; read by: agar / visual reading ; strain: MTCC 183 ; result: 3.12 µg/mL
C[C@@H](n1ccn(-c2ccc(OC(F)(F)F)cc2)c1=O)C(O)(Cn1cncn1)c1ccc(F)cc1F ; read-out: MIC ; strain: TA ; result: <0.016 µg/mL
CCCCCCOC(=O)C(N)Cc1cc(I)c(OC)c(I)c1 ; read-out: MIC ; result: 1000 µg/mL
Cc1ccc(-c2nc3ccccc3c(=O)n2-c2ccc(C(=O)NN3C(=O)/C(=C/c4ccc(O)cc4)SC3c3ccc(F)cc3)cc2)cc1 ; read-out: MIC100 ; strain: MTCC 227 ; result: 1000 µg/mL
Clc1ccc(COC(Cn2ccnc2)c2ccc(Cl)cc2Cl)c(Cl)c1 ; read-out: Mean MIC ; strain: 10 strains ; result: 5.66 µg/mL
Cc1ccc(-c2nc3ccccc3c(=O)n2-c2ccc(C(=O)NN3C(=O)/C(=C/c4ccc([N+](=O)[O-])cc4)SC3c3ccc(F)cc3)cc2)cc1 ; read-out: MIC100 ; strain: MTCC 227 ; result: 500 µg/mL
C[C@@H](c1ncncc1F)[C@](O)(Cn1cncn1)c1ccc(F)cc1F ; read-out: Mean MIC ; strain: 100 isolates ; result: 0.12 µg/mL
C/C(=N\NC(=O)c1ccncc1)c1cc2ccccc2oc1=O ; read-out: MIC ; read by: broth dilution ; strain: ATCC 2091 ; result: 50 µg/mL
O=C(Nc1ccc(Cc2nc3ccccc3s2)cc1)c1ccccc1 ; read-out: MIC100 ; read by: broth dilution ; strain: ATCC 10231 ; result: 25 µg/mL
CS(C)=O ; read-out: MIC ; strain: SC5314 ; result: 6.25 µg/mL
Cc1ccc(-c2nc3ccccc3c(=O)n2-c2ccc(C(=O)NN3C(=O)CSC3c3ccc(F)cc3)cc2)cc1 ; read-out: MIC10 ; strain: MTCC 227 ; result: 250 µg/mL
CSC1NN=C(c2snnc2C)N1c1ccc2ccccc2c1 ; read-out: MIC ; strain: ATCC 14053 ; result: 25 µg/mL
CCC(C)n1ncn(-c2ccc(N3CCN(c4ccc(OC[C@H]5CO[C@](Cn6cncn6)(c6ccc(Cl)cc6Cl)O5)cc4)CC3)cc2)c1=O ; read-out: MIC ; strain: TIMM1850 ; result: 0.016 µg/mL
COc1ccc(C2NC(=S)Nc3n[nH]c(C(C)C)c32)cc1OC ; read-out: MIC ; strain: ATCC 10231 ; result: 312.5 µg/mL
Cc1c(Sc2ccccc2)[n+](=O)c2cc(Cl)ccc2n1[O-] ; read-out: MIC ; strain: Clinical isolate 3 ; result: 62.5 µg/mL
CSC1NN=C(c2sc(C)nc2C)N1C1C2CC3CC(C2)CC1C3 ; read-out: MIC ; strain: ATCC 14053 ; result: 12.5 µg/mL
Cc1nc(-c2ccc(-n3ccn(C(C)C(O)(Cn4cncn4)c4ccc(F)cc4F)c3=O)cc2)co1 ; read-out: MIC ; strain: TA ; result: ≤0.001 µg/mL
CCOC(=O)c1cc(C)nc2sc3c(Cl)nnnc3c12 ; read-out: MIC ; result: 25–100 µg/mL
Cc1c(S(=O)(=O)c2ccccc2)[n+](=O)c2ccccc2n1[O-] ; read-out: MIC ; strain: Clinical isolate 6 ; result: 7.8 µg/mL
C=C1/C=C(\CO)[C@H](CC)OC(=O)[C@H](C)C(=O)C(O)(CO)C/C(C)=C/[C@@H](C)C1 ; read-out: MIC ; strain: MY1055 ; result: >200 µg/mL
CC(N1CCN(c2ccc(-n3ccnc3)cc2)C1=O)C(O)(Cn1cncn1)c1ccc(F)cc1F ; read-out: MIC ; strain: TA ; result: 0.004 µg/mL
C[C@@H](N1CCN(c2ccc(OC(F)(F)F)cc2)C1=O)C(O)(Cn1cncn1)c1ccc(F)cc1F ; read-out: MIC ; strain: TA ; result: <0.016 µg/mL
Cc1nc(C)c(C2=NNC(SCc3ccc(C(F)(F)F)cc3)N2C2C3CC4CC(C3)CC2C4)s1 ; read-out: MIC ; strain: ATCC 14053 ; result: 25 µg/mL
CCCCCOC(=O)C(N)Cc1cc(I)c(OC)c(I)c1 ; read-out: MIC ; result: 500 µg/mL
N#CC(C(=S)NCc1ccc(Cl)cc1)c1nc2ccccc2o1 ; read-out: MIC ; result: <100 µg/mL
CCN1CCN(c2nc(NN=C3SCC(=O)N3c3ccccc3F)nc3ccccc23)CC1 ; read-out: MIC ; read by: agar / visual reading ; strain: MTCC 183 ; result: 3.12 µg/mL
Clc1ccccc1C(c1ccccc1)(c1ccccc1)n1ccnc1 ; read-out: MIC ; result: 2 µg/mL

A second listing of 4 rows from above:

SMILES | read-out | read by | strain | result
CCC(C)n1ncn(-c2ccc(N3CCN(c4ccc(OC[C@H]5CO[C@](Cn6cncn6)(c6ccc(Cl)cc6Cl)O5)cc4)CC3)cc2)c1=O | MIC | - | TIMM1850 | 0.016 µg/mL
C[C@H]1[C@H](O)[C@@H](C)/C=C/C=C/C=C/C=C/C=C/C=C/C=C/[C@H](O[C@@H]2O[C@H](C)[C@@H](O)[C@H](N)[C@@H]2O)C[C@@H]2O[C@](O)(C[C@@H](O)C[C@@H](O)CC[C@H](O)[C@@H](O)C[C@@H](O)CC(=O)O[C@H]1C)C[C@H](O)[C@H]2C(=O)O | MIC | broth dilution | ATCC 18804 | 0.09 µM
C[C@@H](N1CCN(c2ccc(OCC(F)(F)C(F)F)cc2)C1=O)C(O)(Cn1cncn1)c1ccccc1F | MIC | - | TIMM1756 | <0.016 µg/mL
Cc1nc(C)c(C2=NNC(SCc3ccc(C(F)(F)F)cc3)N2C2C3CC4CC(C3)CC2C4)s1 | MIC | - | ATCC 14053 | 25 µg/mL